A mixed list of measured activities; the numbers were collected in NIAID ChemDB.

MIC bound: limit read from a one-dose screen. Inhibition is in % at the dose shown (toxicity tests: loss of growth or viability). An empty or dashed field is not shown. Lines come from different laboratories, so protocols vary. ICn is the concentration giving n% inhibition. A number after MIC or MFC names an inhibition level or a share of isolates.

smiles,test,agent,strain,protein,read by,measure,dose,value
COc1ccc(N2CCN(c3cncc(-c4csc5ccccc45)n3)CC2)cc1,target,Cytomegalovirus,-,UL97 kinase,-,inhibition,1 µM,<50%
CC(C)(C)N/N=C(\Cc1nc2c3c(ccc2[nH]c1=O)C(=O)c1ccccc1C3=O)C(=O)NC1=C(Cl)C(=O)c2ccccc2C1=O,culture,Mycobacterium tuberculosis,H37Rv,-,BACTEC,MIC bound,-,>12.5 µg/mL
Nc1ccc(N)c2c1C(=O)c1ccccc1C2=O,culture,Mycobacterium tuberculosis,H37Rv,-,-,MIC,-,100 µg/mL
COc1ccc(-c2cncc(N3CCN(c4cccc5[nH]ccc45)CC3)n2)cc1,target,Cytomegalovirus,-,UL97 kinase,-,IC50,-,<10 µM
CC(=O)N(C)c1c(Br)cc(Br)c2c1C(=O)c1ccccc1C2=O,culture,Mycobacterium tuberculosis,H37Rv,-,-,MIC,-,>100 µg/mL
C=CCc1ccc(O)c(OC)c1,culture,Candida albicans,ATCC 44829,-,turbidity,MIC90,-,480 µg/mL
c1ccc(COc2ccc3ccccc3n2)cc1,culture,Mycobacterium tuberculosis,H37Rv,-,-,MIC,-,>100 µg/mL
C=C(Br)CN(CC(=C)Br)NC(C)=O,culture,Mycobacterium tuberculosis,H37Rv,-,BACTEC,MIC bound,-,>12.5 µg/mL
Fc1ccc(N2CCCCC2)c(NC(=S)c2ccncc2)c1,host protein,-,-,NEK2,kinase activity,inhibition,10 µM,-55%
CCCCN(c1ccccc1)S(=O)(=O)c1ccc2oc(C(=O)CC#N)cc2c1,culture,Mycobacterium tuberculosis,H37Rv,-,-,MIC,-,>100 µg/mL
CC(=O)N/N=C1\CC(C)(C)C2CCC1C2,culture,Mycobacterium tuberculosis,H37Rv,-,BACTEC,inhibition,12.5 µg/mL,11%
Cc1ccc(-c2cncc(N3CCN(c4ccccn4)CC3)n2)cc1C,target,Cytomegalovirus,-,UL97 kinase,-,inhibition,1 µM,<50%
Cl.Cl.OCCN1CCCN(CCCN2c3ccccc3Sc3ccc(C(F)(F)F)cc32)CC1,culture,Mycobacterium tuberculosis,H37Rv,-,BACTEC,MIC,-,12.5 µg/mL
COc1ccc(Cl)cc1-c1cncc(N2CCN(c3ccccc3OC)CC2)n1,target,Cytomegalovirus,-,UL97 kinase,-,IC50,-,<100 µM
NC(Cc1ccc(Cl)cc1Cl)C(=O)O,culture,Mycobacterium tuberculosis,H37Rv,-,-,MIC,-,25 µg/mL
NC(=O)NCCCC(N)C(=O)O,culture,Mycobacterium tuberculosis,H37Rv,-,BACTEC,inhibition,12.5 µg/mL,11%
Cc1cccc(N2CCN(c3cncc(-c4csc5ccccc45)n3)CC2C)c1,target,Cytomegalovirus,-,UL97 kinase,-,inhibition,10 µM,>15%
CCOc1c(N=Nc2ccc([N+](=O)[O-])cc2)c(C)nn1C(=S)S,culture,Mycobacterium tuberculosis,H37Rv,-,BACTEC,inhibition,12.5 µg/mL,26%
OCc1ccc(-c2cncc(N3CCN(c4ccccc4)CC3)n2)cc1,target,Cytomegalovirus,-,UL97 kinase,-,inhibition,1 µM,<50%
Oc1ccc(Cl)c(O)c1,culture,Mycobacterium tuberculosis,H37Rv,-,-,MIC,-,>100 µg/mL
Nc1cccc(C(=O)[O-])c1,culture,Mycobacterium tuberculosis,H37Rv,-,BACTEC,MIC,-,≥128 µg/mL
Cc1ccc(N)c(S(=O)(=O)O)c1,culture,Mycobacterium tuberculosis,H37Rv,-,-,MIC,-,100 µg/mL
COc1cccc(N2CCN(c3cncc(-c4ccc5ccccc5c4)n3)CC2)c1,target,Cytomegalovirus,-,UL97 kinase,-,IC50,-,<10 µM
Cl.NCCc1ccc([N+](=O)[O-])cc1,culture,Mycobacterium tuberculosis,H37Rv,-,-,MIC,-,>100 µg/mL
O=c1[nH]nc(-c2ccc([N+](=O)[O-])o2)c(=O)[nH]1,culture,Mycobacterium tuberculosis,H37Rv,-,BACTEC,inhibition,12.5 µg/mL,54%
CCCCCc1cc2c(cc1O)oc(=O)c1ccc(C)cc12,culture,Mycobacterium tuberculosis,H37Rv,-,-,MIC,-,>100 µg/mL
CCN(CC)CCNC(=O)c1c2nc3c(C(=O)NCCN(CC)CC)ccc(C)c3oc-2c(C)c(=O)c1N,culture,Mycobacterium tuberculosis,H37Rv,-,BACTEC,MIC,-,≥12.8 µg/mL
COc1ccc(-c2cncc(N3CCN(c4ccc(Cl)c(Cl)c4)CC3)n2)cc1OC,target,Cytomegalovirus,-,UL97 kinase,-,inhibition,10 µM,>15%
O=C(C[n+]1ccccc1)Nc1ccccc1.[Br-],culture,Mycobacterium tuberculosis,H37Rv,-,-,MIC,-,>100 µg/mL
NC(=O)c1ccc[n+](CC(=O)O)c1.[Br-],culture,Mycobacterium tuberculosis,H37Rv,-,BACTEC,inhibition,12.5 µg/mL,10%
O=C(NCCCN1CCOCC1)NCCCN1CCOCC1,culture,Mycobacterium tuberculosis,H37Rv,-,-,MIC,-,>100 µg/mL
O=c1oc2nc(-c3ccccc3)[nH]c(=O)c2c(O)c1Cc1ccccc1,culture,Mycobacterium tuberculosis,H37Rv,-,BACTEC,inhibition,12.5 µg/mL,7%
Fc1ccc(-c2cncc(N3CCN(c4ccncc4)CC3)n2)c(F)c1,target,Cytomegalovirus,-,UL97 kinase,-,IC50,-,<10 µM

A second listing of 3 rows from above:

smiles	test	agent	strain	protein	read by	measure	dose	value
C=C(Br)CN(CC(=C)Br)NC(C)=O	culture	Mycobacterium tuberculosis	H37Rv	-	BACTEC	MIC bound	-	>12.5 µg/mL
NC(Cc1ccc(Cl)cc1Cl)C(=O)O	culture	Mycobacterium tuberculosis	H37Rv	-	-	MIC	-	25 µg/mL
O=c1oc2nc(-c3ccccc3)[nH]c(=O)c2c(O)c1Cc1ccccc1	culture	Mycobacterium tuberculosis	H37Rv	-	BACTEC	inhibition	12.5 µg/mL	7%